Record: PubChem BioAssay AID1224833 (University of Georgia, 2016)

Assay: 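Human genes whose knock-down alters rotavirus replication in monkey cells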 (primary screen)
Cells: monkey MA104 kidney cells
Reagent: siRNA pool against human genes, 50 nM
Duration: 48 h knock-down before infection; read 24 h after infection
Conditions: infection with rotavirus strain RV3 two days after transfection; infectious dose for this stage not given
Measured: 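Rotavirus antigen per well by fluorescent immunoassay, normalised to non-targeting control wells on each plate and given as a standard z-score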
Direction: z-score vs non-targeting control: higher = more rotavirus replication than with non-targeting control
Rule for the call: In these data the active calls have z-score vs non-targeting control at about -1 or lower, or at about 1 or higher
Meaning of the calls: active = z-score beyond 1 either way; inactive = z-score within 1 of zero
The whole screen tested about 12,000 reagents; shown is an unselected part. About 5,600 of them (46%) were called active. 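Active calls cover z-scores past 1 in both directions, so they include lowered as well as raised rotavirus replication.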 Entries without a mark were called inactive.

The first 7 records as a preview:
gene knocked down	z-score vs non-targeting control
SIGLEC7	0.392
MIER3	-0.722
MARCO	-0.937
DCAF5	-0.474
GPHA2	-1.11 (active)
PIAS1	-0.642
AGRN	-0.888

The list itself, repeating the preview:
gene knocked down	z-score vs non-targeting control
SIGLEC7	0.392
MIER3	-0.722
MARCO	-0.937
DCAF5	-0.474
GPHA2	-1.11 (active)
PIAS1	-0.642
AGRN	-0.888
ZZEF1	1.32 (active)
FCGR3B	-1.24 (active)
KRTAP2-4	-0.74
BBX	0.105
FNIP2	-1.83 (active)
FBLN1	-0.426
C1orf141	1.79 (active)
NPTX1	0.888
SELENOK	-0.24
PCDHAC1	-0.883
CCNB1	0.639
CSF1	0.566
SLC66A3	1.21 (active)
OR5T2	-1.44 (active)
CALR	-1.1 (active)
OR4F4	-1.96 (active)
IMPDH2	-1.41 (active)
LACRT	0.0558
DRC7	0.455
PCDHGA8	0.886
TBC1D1	-1.11 (active)
MRPL21	-1.54 (active)
H2AZ1	1.41 (active)
ZDHHC19	-0.441
SH3PXD2A	-2.77 (active)
MYBL2	-0.883
ZBED2	1.89 (active)
MRGBP	-1.13 (active)
LOXL2	-0.818
FOXQ1	-2.72 (active)
POLR3C	-0.893
MLF2	0.268
LRRN4CL	-1.18 (active)
ATRNL1	-0.506
FTHL17	-1.69 (active)
BMS1	-0.643
GPX3	-1.02 (active)
CUX1	-1.12 (active)
SIRT6	-3.58 (active)
COX7B2	-1.87 (active)
GRM3	-1.82 (active)
SPAST	-1.49 (active)
CEACAM6	-1.52 (active)
DOCK4	0.169
IGFBP6	1.71 (active)
APLF	-0.962
TSC22D4	-0.0202
IFIT2	-0.561
PHYHIPL	0.292
CNMD	-0.455
SPATS2L	-1 (active)
DEFB103A	1.32 (active)
AGTR2	-1.91 (active)
OPRPN	1.13 (active)
OR2AK2	-1.1 (active)
ARHGAP8	-2.35 (active)
NCOA5	0.35
OLIG1	0.778
GGCX	0.764
C9orf153	-0.807
NME9	-0.819
ARL13B	1.03 (active)
SLC67A1	-0.552
TEX101	1.54 (active)
POLR3K	0.604
ZNF704	0.209
PPOX	-0.886
NOL6	0.151
AGL	0.891
EHD2	-1.76 (active)
CD6	-0.909
TRAF1	-0.0148
ARMCX1	-0.33
TRARG1	0.608
LDHA	-0.689
CCDC93	1.18 (active)
MARF1	-0.497
CNOT9	0.63
SNX20	1.75 (active)
DMRTA1	0.708
PLOD1	-0.589
CNPY2	-0.408
ARHGEF35	-0.508
ZNF692	-1.12 (active)
ZNF273	1.25 (active)
PCDHGA4	-0.124
GLI1	1.34 (active)
CENATAC	-0.631
DENND6A	-0.543
TSPAN5	-2.47 (active)
SCRIB	0.611
TMED7	0.733
TAX1BP1	-2.35 (active)
MYBPH	0.368
RPS11	1.12 (active)
MRPL50	-0.398
ARHGAP32	-0.228
RAP1GDS1	-0.69
LRRC8B	-0.0601
ZSCAN5A	0.951
NLRP12	0.674
IFNA6	-0.0157
TBC1D17	-1.33 (active)
